Results of unrelated studies side by side (data: NIAID ChemDB).

All rows: growth or infection tests; agent: Herpes simplex virus 2; cells: MRC-5; endpoint: EC50

An empty or dashed field is not shown. ECn: concentration that inhibits the pathogen or its effect by n%. Lines come from different laboratories, so protocols vary.

| SMILES | strain or isolate | method | value |
|---|---|---|---|
| C[C@H]1[C@H](O)[C@@H](CO)O[C@H]1n1cc(I)c(=O)[nH]c1=O | G | plaque count | >61.27 µg/mL |
| Nc1nc2c(ncn2CCC(CO)CO)c(=O)[nH]1 | UW-268 | plaque count | 2.2 µg/mL |
| CCCCCCCCCCCCCCCCCCOCCOP(=O)(O)CO[C@H](CO)Cn1ccc(N)nc1=O | - | plaque count | 0.03 µM |
| Nc1ccn(C[C@H]2COP(=O)(O)CO2)c(=O)n1 | - | - | 8.3 µM |
| Nc1nc2c(ncn2COC(CO)CO)c(=O)[nH]1 | - | plaque count | 0.2 µM |
| Nc1ncnc2c1ncn2OCC(CO)OCP(=O)(O)O | MS | plaque count | >310 µg/mL |
| CCCCCCCCCCCCCCCCOCCCOP(=O)(O)OCC(CO)OCn1cnc2c(=O)[nH]c(N)nc21 | - | plaque count | 1.5 µM |
| C[C@H]1[C@H](O)[C@@H](CO)O[C@H]1n1cc(I)c(N)nc1=O | G | plaque count | >100 µg/mL |
| Nc1nc2c(ncn2CCC(CO)CO)c(=O)[nH]1 | MS | plaque count | 0.8 µg/mL |
| Nc1ccn([C@@H]2O[C@H](CO)[C@@H](O)[C@H]2O)c(=S)n1 | G | plaque count | >386 µM |
| Nc1ccn(C[C@H]2COP(=O)(O)CO2)c(=O)n1 | - | plaque count | 11.2 µM |
| Nc1nc(=S)n([C@@H]2O[C@H](CO)[C@@H](O)[C@@H]2O)cc1Br | G | plaque count | 178 µM |
| Nc1nc2c(ncn2CCC(CO)CO)c(=O)[nH]1 | Clinical isolate | hybridisation | 0.5 µg/mL |
| O=c1[nH]cnc2c1ncn2OCCOCP(=O)(O)O | MS | plaque count | >340 µg/mL |
| CCCCCCCCCCCCCCCCCCOCCCOP1(=O)CO[C@@H](Cn2ccc(N)nc2=O)CO1 | - | plaque count | 0.28 µM |
| Nc1nc(=S)n([C@@H]2O[C@H](CO)[C@@H](O)[C@@H]2O)cc1F | G | plaque count | >361 µM |
| Nc1ccn(C[C@@H](CO)OCP(=O)(O)O)c(=O)n1 | 8708 (TK altered) | plaque count | 0.4 µM |
| Nc1nc(=S)n([C@H]2C[C@H](O)[C@@H](CO)O2)cc1Cl | G | plaque count | 72.3 µM |
| Nc1nc2c(ncn2COCCO)c(=O)[nH]1 | G | plaque count | 0.3 µg/mL |
| Nc1nc2c(ncn2C[C@]2(CO)C[C@H]2CO)c(=O)[nH]1 | 186 | plaque count | >100 µg/mL |
| Nc1nc(=S)n([C@@H]2O[C@H](CO)[C@@H](O)[C@@H]2O)cc1Cl | G | plaque count | >341 µM |